The results in this text go back to US10947274.

The test addresses rat α9α10 nAChR (rat), P43144. The test can be described thus: cell-based or functional assay.

GCUSDPRCRYRUR (modifications not checked) [[C3 Sec;C12Sec] RgIA]: the % block at 10 nM was 81.9% and the IC50, block of the acetylcholine response (Xenopus oocytes) is < 10 nM.
